{"source": "PubChem BioAssay AID504761 | Drosophila RNAi Screening Center | 2011", "screen": "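Fly genes whose silencing reduces dengue virus type 2 infection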 (primary screen)", "system": "D.Mel-2 cells from Drosophila", "knock-down reagent": "long dsRNA against Drosophila genes", "treatment": "infection with dengue virus type 2; dose and infection time not stated", "detection": "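Per well on two replicate plates, imaging gave the percent of cells positive for viral envelope protein, ranked by infection, and a nuclear count of cells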", "scale": "infection score: higher = more virus-infected cells; cell count: higher = more cells in the well", "call rule": "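Low infection ranks in the two replicates (chance level up to 0.065) followed by a retest with a 1.5-fold or larger significant decrease, p below 0.05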", "meaning of the calls": "active = confirmed: knock-down lowers infection; inactive = not picked or not confirmed", "note": "The deposit covers about 22,000 reagents; this is a random part of those that have a named target and a result. Over the whole deposit, 116 (0.52%) were called active. 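Calls depend on retest data that are not deposited; infection was ranked per plate without normalising between plates; the unit of the infection score is not given.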 The raw values are shown without normalisation. A number with no mark means an inactive call. Further read-outs or replicates are left out here. Not given: the amount of reagent, the time to read-out."}
{"target":"for (GeneID 44817)","amplicon":"DRSC00195","infection score, replicate 1":2.64,"cell count, replicate 1":5533}
{"target":"for (GeneID 44817)","amplicon":"DRSC00818","infection score, replicate 1":5.12,"cell count, replicate 1":6092}
{"target":"for (GeneID 44817)","amplicon":"DRSC25103","infection score, replicate 1":0.91,"cell count, replicate 1":6032}
{"target":"CG2202 (GeneID 32014)","amplicon":"DRSC19841","infection score, replicate 1":7.64,"cell count, replicate 1":6258}
{"target":"CG2202 (GeneID 32014)","amplicon":"DRSC23452","infection score, replicate 1":3.73,"cell count, replicate 1":6119}

2 entries from above, set out differently.
CG2202 (GeneID 32014) [DRSC19841]
- infection score, replicate 1: 7.64
- cell count, replicate 1: 6258

CG2202 (GeneID 32014) [DRSC23452]
- infection score, replicate 1: 3.73
- cell count, replicate 1: 6119

The results go on.
{"target":"Tsp3A (GeneID 31244)","amplicon":"DRSC18656","cell count, replicate 1":281}
{"target":"Tsp3A (GeneID 31244)","amplicon":"DRSC25654","infection score, replicate 1":4.52,"cell count, replicate 1":6464}
{"target":"sll (GeneID 42115)","amplicon":"DRSC16271","infection score, replicate 1":27.4,"cell count, replicate 1":5108}
{"target":"sll (GeneID 42115)","amplicon":"DRSC29864","infection score, replicate 1":4.92,"cell count, replicate 1":2764}
{"target":"Lfg (GeneID 36418)","amplicon":"DRSC06853","infection score, replicate 1":7.1,"cell count, replicate 1":6779}
{"target":"Obp59a (GeneID 37605)","amplicon":"DRSC04160","infection score, replicate 1":13.9,"cell count, replicate 1":6161}
{"target":"CG4743 (GeneID 43101)","amplicon":"DRSC15636","infection score, replicate 1":22.4,"cell count, replicate 1":5105}
